Anti-infective test results gathered from many reports (values: NIAID ChemDB through PubChem).

Common to all: growth or infection tests; species: Herpes simplex virus 1; method: cytopathic effect; measure: EC50

Lines come from different laboratories, so protocols vary.

| SMILES | strain or isolate | cells | value |
|---|---|---|---|
| CC#CSC[C@H]1O[C@@H](n2cnc3c(N)ncnc32)[C@H](O)[C@@H]1O | KOS | E6SM | 250 µM |
| COC(=O)[C@@H]1c2cc3c(c(O)c2[C@@H](OC2OC(C)C(OC)C(C)(OC)C2OC)C[C@]1(C)O)C(=O)c1c(O)cc2c(c1C3=O)O[C@H]1O[C@]2(C)[C@H](O)[C@@H](N(C)C)[C@@H]1O | KOS | HeLa | >200 µg/mL |
| NC(=S)N/N=C(\c1ccccn1)C12CC3CC(CC(C3)C1)C2 | TK- | E6SM | >400 µg/mL |
| Nc1nc(Cl)c2nnn(C[C@H]3CC[C@@H](CO)C3)c2n1 | VMW1837 (TK-) | E6SM | >200 µg/mL |
| Nc1ncnc2c1ncn2C[C@@H](CO)OCP(=O)(O)O | 3 strains | Primary rabbit kidney cells | 2 µg/mL |
| O=C1NCc2c1c1c3ccccc3[nH]c1c1[nH]c3ccccc3c21 | K1 | HEF | >25 µM |
| CC(=O)OC[C@]12CCC(C)=C[C@H]1O[C@@H]1[C@H](O)[C@@H](OC(C)=O)[C@@]2(C)[C@@]12CO2 | KOS | HeLa | >200 µg/mL |
| Nc1ncnc2c1ncn2C[C@@H](CO)OCP(=O)(O)O | KOS | VERO | 0.67 µg/mL |
| Nc1ncnc2c1ncn2[C@@H]1O[C@H](C#CCl)[C@@H](O)[C@H]1O | VMW1837 (TK-) | E6SM | 140 µM |
| Cc1c(C(N)=O)ncn1COCCO |  | HeLa | >200 µg/mL |
| CC1CC(OC(=O)C(O)c2ccccc2)CC(C)(C)C1 | KOS | HeLa | >400 µg/mL |
| O=c1[nH]c(=O)n([C@H]2C[C@H](O)[C@@H](CO)O2)cc1CCCl | BRAND | VERO | >0.03 µM |
| Nc1nc(N)c2ncn(C[C@H]3CC[C@@H](CO)C3)c2n1 | VMW1837 (TK-) | E6SM | 300 µg/mL |
| Cc1cn(CC(CO)OCP(=O)(O)O)c(=O)[nH]c1=O | (TK-) 2 strains | Primary rabbit kidney cells | >400 µg/mL |
| Nc1nc(NC2CC2)c2ncn([C@H]3C=C[C@@H](CO)C3)c2n1 | KOS | E6SM | ≥40 µg/mL |
| O=C(C=Cc1ccc(O)c(O)c1)O[C@@H]1C[C@](O)(C(=O)O)C[C@@H](O)[C@H]1O |  | VERO | >512 µg/mL |
| Cc1c(C(N)=O)ncn1C1CC(O)C(CO)O1 |  | HeLa | 150 µg/mL |
| COP(=O)(CC(=O)OC[C@H]1O[C@@H](n2cc(I)c(=O)[nH]c2=O)C[C@@H]1O)OC | BRAND | VERO | >0.6 µM |
| Nc1nc2c(ncn2COCCO)c(=O)[nH]1 | B2006 (TK-) | VERO | 57.7 µM |
| N#C/C(=C/c1ccncc1)c1csc2ccccc12 | MCRAE | MRC-5 | <1 µg/mL |
| Nc1nc(N)c2ncn(CCOCP(=O)(O)O)c2n1 | (TK-) 2 strains | Primary rabbit kidney cells | 1 µg/mL |
| Nc1ccn([C@@H]2C[C@H](CO)[C@@H](O)[C@H]2O)c(=O)n1 | KOS | PRK | 100 µg/mL |
| CC(=O)OCC(CCn1cnc2c(=O)[nH]c(N)nc21)COP1(=O)OCc2cccc(C)c2O1 | B2006 (TK-) | VERO | 119 µM |
| O=C(O)CP(=O)(O)O | BRAND | VERO | >71.4 µM |
| Nc1ncnc2c1ncn2C[C@H]1COP(=O)(O)CO1 | (TK-) 2 strains | Primary rabbit kidney cells | 2 µg/mL |
| COC(=O)OP(=O)(CO[C@H](CO)Cn1cnc(N)nc1=O)OC(=O)OC | KOS |  | 0.076 µg/mL |
| COP(=O)(CC(=O)O[C@H]1C[C@H](n2cc(CCCl)c(=O)[nH]c2=O)O[C@@H]1CO)OC | BRAND | VERO | >0.7 µM |
| Cc1ccc2c(c1)COP(=O)(OCCOCn1cnc3c(=O)[nH]c(N)nc31)O2 | B2006 (TK-) | VERO | 1.69 µM |
| Nc1nccc2c1ncn2[C@@H]1C[C@H](CO)[C@@H](O)[C@H]1O | KOS F McIntyre | PRK | ≥200 µg/mL |
| Nc1ccn(C[C@@H](CO)OCP(=O)(O)O)c(=O)n1 | KOS | VERO | 0.46 µg/mL |
| Nc1nc(NC2CC2)c2ncn([C@H]3C=C[C@@H](COP4(=O)OCc5cc(Cl)ccc5O4)C3)c2n1 | TK-deficient acyclovir-resistant | E6SM | 24 µg/mL |
| CCCCC[C@H](O)/C=C/[C@H]1C=CC(=O)[C@@H]1CCCCCCC(=O)O | KOS | HeLa | >4 µg/mL |
| Cc1ccc2c(c1)COP(=O)(OCCOCn1cnc3c(=O)[nH]c(N)nc31)O2 | TK-deficient acyclovir-resistant | E6SM | 0.95 µg/mL |
| C=C(/C=C/P(=O)(O)O)Cn1cnc2c(=O)[nH]c(N)nc21 | HF | VERO | 119 µM |
| Nc1nccc2c1ncn2[C@@H]1C[C@H](CO)[C@@H](O)[C@H]1O | B2006 (TK-) | E6SM | 20 µg/mL |
| Cn1cc(NC(=O)c2cc(NC(=O)CCCCCC(=O)Nc3cc(C(=O)Nc4cc(C(=O)NCCC(N)=[NH2+])n(C)c4)n(C)c3)cn2C)cc1C(=O)NCCC(N)=[NH2+] | KOS | PRK | >150 µg/mL |
| Cn1c2ccccc2c2c3c(c4c5ccccc5n(CCC#N)c4c21)CNC3=O | K1 | HEF | >25 µM |
| Cc1cccc2c1OP(=O)(OCCOCn1cnc3c(=O)[nH]c(N)nc31)OC2 | TK-deficient acyclovir-resistant | E6SM | 5.3 µg/mL |
| NC(=O)c1ncn([C@@H]2O[C@H](CO)[C@@H](O)[C@H]2O)n1 | VMW1837 (TK-) | E6SM | 192 µM |
| NNC(=O)c1ccncc1 | KOS | HeLa | >200 µg/mL |
| Nc1nc2c(ncn2COCCO)c(=O)[nH]1 | TK-deficient acyclovir-resistant | E6SM | ≥80 µg/mL |
| O=c1[nH]c(=O)n([C@H]2C[C@H](O)[C@@H](CO)O2)cc1I | TK- | VERO | >8.4 µM |
| Nc1nc(Cl)c2ncn(C[C@H]3CC[C@@H](CO)C3)c2n1 | VMW1837 (TK-) | E6SM | >1 µg/mL |
| CCOC(=O)P(=O)(OC)OC[C@H]1O[C@@H](n2cc(I)c(=O)[nH]c2=O)C[C@@H]1O | TK- | VERO | >19.8 µM |
| NC1=Nc2c(ncn2CCCCCP(=O)(O)O)C(=O)C1 |  | VERO | >250 µM |
| Nc1nc(N)c2ncn(CCOCP(=O)(O)O)c2n1 | KOS | VERO | 3.1 µg/mL |
| ClCc1csc2ccccc12 | MCRAE | MRC-5 | 0.1 µg/mL |
| NC1=Nc2c(ncn2CCC/C=C/P(=O)(O)O)C(=O)C1 |  | VERO | ≥250 µM |
| CCOC(=O)P(=O)(OC)OC[C@H]1O[C@@H](n2cc(CCCl)c(=O)[nH]c2=O)C[C@@H]1O | BRAND | VERO | >0.7 µM |
| O=c1[nH]cnc2c1ncn2CC(CO)OCP(=O)(O)O | 3 strains | Primary rabbit kidney cells | >400 µg/mL |
| Nc1nc2c(nnn2C[C@H]2CC[C@@H](CO)C2)c(=O)[nH]1 | KOS | E6SM | >200 µg/mL |
| CCOC(=O)P(=O)(O)OC[C@H]1S[C@@H](n2cc(CC)c(=O)[nH]c2=O)C[C@@H]1O | L2 acyclovir-susceptible | VERO | 0.7 µM |
| Nc1nc2c(ncn2CCC(CO)COP2(=O)OCc3ccccc3O2)c(=O)[nH]1 | KUPKA | VERO | 91.6 µM |
| O=C(O)Cc1ccc(O)c(O)c1 |  | VERO | >512 µg/mL |
| O=C(O)CP(=O)(O)OC[C@H]1O[C@@H](n2cc(CCCl)c(=O)[nH]c2=O)C[C@@H]1O | BRAND | VERO | >2.3 µM |

Repeating the final 4 entries:

| SMILES | strain or isolate | cells | value |
|---|---|---|---|
| CCOC(=O)P(=O)(O)OC[C@H]1S[C@@H](n2cc(CC)c(=O)[nH]c2=O)C[C@@H]1O | L2 acyclovir-susceptible | VERO | 0.7 µM |
| Nc1nc2c(ncn2CCC(CO)COP2(=O)OCc3ccccc3O2)c(=O)[nH]1 | KUPKA | VERO | 91.6 µM |
| O=C(O)Cc1ccc(O)c(O)c1 |  | VERO | >512 µg/mL |
| O=C(O)CP(=O)(O)OC[C@H]1O[C@@H](n2cc(CCCl)c(=O)[nH]c2=O)C[C@@H]1O | BRAND | VERO | >2.3 µM |

Blank or dashed fields: not listed here. ECn: concentration that inhibits the pathogen or its effect by n%.